Experimental data taken from the supplement of paper PMC3578754.
Fold change is the IC50 on the isolate divided by the IC50 on a reference virus; 1 = unchanged, higher = more resistant. Changes are given against the subtype B consensus. No active / inactive call. The values were gathered from many studies (numbered anew) with different assays, which the source does not name. Most viruses are clinical isolates; some are laboratory strains or clones with known resistance changes. Isolates with mixed residues are left out; stretches that were not sequenced show no change. Round top values that many isolates share are read here as limits; other very high values and 0.1 may be limits too. The protease changes I3V and N37S, insertions and deletions cannot be read from the source.

Experiments:
Experiment in all cases: fold change of IC50 against reference virus; higher = more resistant; Cell-culture drug susceptibility tests of virus bearing the protease of each isolate, gathered from many studies.
[1] = compound: CC(C)(C)NC(=O)[C@@H]1CN(Cc2cccnc2)CCN1C[C@@H](O)C[C@@H](Cc1ccccc1)C(=O)N[C@H]1c2ccccc2C[C@H]1O [indinavir]
[2] = compound: CC(C)(C)NC(=O)[C@@H]1C[C@@H]2CCCC[C@@H]2CN1C[C@@H](O)[C@H](Cc1ccccc1)NC(=O)[C@H](CC(N)=O)NC(=O)c1ccc2ccccc2n1 [saquinavir]
[3] = compound: CC(C)c1nc(CN(C)C(=O)N[C@H](C(=O)N[C@@H](Cc2ccccc2)C[C@H](O)[C@H](Cc2ccccc2)NC(=O)OCc2cncs2)C(C)C)cs1 [ritonavir]
[4] = compound: COC(=O)N[C@H](C(=O)N[C@@H](Cc1ccccc1)[C@@H](O)CN(Cc1ccc(-c2ccccn2)cc1)NC(=O)[C@@H](NC(=O)OC)C(C)(C)C)C(C)(C)C [atazanavir]
[5] = compound: Cc1c(O)cccc1C(=O)N[C@@H](CSc1ccccc1)[C@H](O)CN1C[C@H]2CCCC[C@H]2C[C@H]1C(=O)NC(C)(C)C [nelfinavir]
[6] = compound: Cc1cccc(C)c1OCC(=O)N[C@@H](Cc1ccccc1)[C@@H](O)C[C@H](Cc1ccccc1)NC(=O)[C@H](C(C)C)N1CCCNC1=O [lopinavir]

| Test System | fold change of IC50 against reference virus [1] | fold change of IC50 against reference virus [2] | fold change of IC50 against reference virus [3] | fold change of IC50 against reference virus [4] | fold change of IC50 against reference virus [5] | fold change of IC50 against reference virus [6] |
| --- | --- | --- | --- | --- | --- | --- |
| HIV-1 isolate 285 (protease changes: L10I I15V L63P A71V V77I I85V N88D L90M, study 15) | 10 | 165 | 41 | 11 | 13 | 6.2 |
| HIV-1 isolate 295 (protease changes: E35D D60E L63P H69Q A71T I72V V77I, study 15) | 1.9 | 1.8 | 2.1 | 1.6 | 4.4 | 1 |
| HIV-1 isolate 333 (protease changes: none, study 15) | 1 | 0.8 | 1.1 | 1 | 1 | 0.9 |
| HIV-1 isolate 343 (protease changes: L10I L19I K20R E35D M36I I54V D60E I62V L63P A71T V82A L90M, study 15) | 30 | 37 | 177 | 16 | 43 | 37 |
| HIV-1 isolate 371 (protease changes: L10I K14R I15V K20I R41I M46I I54V D60N I62V L63P I64V A71V V82T I84V I85V, study 15) | 17 | 15 | 54 | 10 | 12 | 17 |
| HIV-1 isolate 382 (protease changes: L10V I13V I15V K20R L24F L33F E35D M36I N37E I54V I62V L63P K70E A71V V82A L90M I93L, study 15) | 31 | 77 | 300 | 60 | 81 | 110 |
| HIV-1 isolate 406 (protease changes: L10I V11L I13V I15V K20R V32I L33F E35D M36I K43T M46I I47V F53L I54M R57K L63P G73S V77I V82A, study 15) | 31 | 11 | 400 | 70 | 51 | 306 |
| HIV-1 isolate 459 (protease changes: L10I K20R E35D M36I N37D R57K L63P A71V G73S I84V L90M I93L, study 64) | 19 | 123 | 51 | 31 | 25 | 8.3 |
| HIV-1 isolate 516 (protease changes: L10I V11I I13V I15V K20R V32I L33F E35D M36I N37D K43T M46I F53L I54M R57K D60E L63P K70E A71L T74P V82A I84V L89V L90M, study 15) | 62 | 500 | 300 | 500 | 160 | 120 |
| HIV-1 isolate 525 (protease changes: I15V K20R E35D M36I N37D F53L I62V L63P H69K A71T I72V V77I V82A, study 15) | 1.6 | 0.6 | 11 | 2.1 | 1.6 | 2.2 |
| HIV-1 isolate 532 (protease changes: M36I R41K D60E I62V L63P A71V G73S L90M I93L, study 15) | 2.8 | 3.2 | 5 | 3.1 | 5.5 | 1.2 |
| HIV-1 isolate 538 (protease changes: I15V L19T K43R H69Y, study 15) | 0.6 | 0.5 | 0.8 | 0.6 | 0.7 | 0.6 |
| HIV-1 isolate 554 (protease changes: L10I M46I F53L L63P A71V G73S V82T L90M, study 138) | 17 | 16.7 | 45.3 | 19.3 | 18.4 | 9.9 |
| HIV-1 isolate 622 (protease changes: L10I I13V E35D M36I R41K I50V L63P A71V L90M, study 117) | 2.9 | 8.4 | 20.2 | 2 | 10.1 | 12.4 |
| HIV-1 isolate 663 (protease changes: L10F N37D M46I I54V D60E I62V L63P A71V L76V V77I V82A I93L, study 21) | 14 | 0.7 | 8.2 | 0.6 | 3.9 | 53 |
| HIV-1 isolate 682 (protease changes: T12S I15V L19I K20R E35D M36I R41K H69K L89M I93L, study 41) | 1 | 0.8 | 1.3 | 1.2 | 1.3 | 0.8 |
| HIV-1 isolate 703 (protease changes: L10F I13V L19I L24I L33F M46I I54V K55R L63P A71V L76V V82A I93L L97I, study 64) | 37 | 1.6 | 44 | 1.2 | 8.3 | 170 |
| HIV-1 isolate 717 (protease changes: I62V L63H, study 64) | 0.9 | 0.7 | 0.8 | 1 | 0.9 | 0.8 |
| HIV-1 isolate 785 (protease changes: L10I L63V, study 15) | 1.2 | 0.9 | 0.7 | 0.7 | 0.9 | 0.7 |
| HIV-1 isolate 795 (protease changes: L10F D30N L63P V77I V82A, study 138) | 1.8 | 2.3 | 0.9 | 2.5 | 45 | 1.2 |

| Test System | fold change of IC50 against reference virus [1] | fold change of IC50 against reference virus [2] | fold change of IC50 against reference virus [3] | fold change of IC50 against reference virus [4] | fold change of IC50 against reference virus [5] | fold change of IC50 against reference virus [6] |
| --- | --- | --- | --- | --- | --- | --- |
| HIV-1 isolate 823 (protease changes: L10F M46I I50L I54V L63P A71V G73S V77I V82A, study 15) | 4.2 | 1.6 | 6.5 | 76 | 8.3 | 3.6 |
| HIV-1 isolate 888 (protease changes: L10I I62V L63P I72L V77I L90M I93L, study 83) | 3.3 | 3.8 | 3.3 | 1.8 | 5.2 | 1.1 |
| HIV-1 isolate 903 (protease changes: L10I I15V L19I I54V R57K L63A I66L A71V V82F L90M I93L, study 15) | 32 | 3 | 58 | 3.8 | 34 | 25 |
| HIV-1 isolate 913 (protease changes: D30N M46I V77I, study 138) | 1.1 | 0.3 | 0.6 | 1.3 | 23.3 | 0.6 |
| HIV-1 isolate 935 (protease changes: T12P K14R G16E L33I P39S R57K D60E L63P I93L, study 15) | 0.6 | 0.3 | 0.5 | 0.5 | 0.7 | 0.3 |
| HIV-1 isolate 948 (protease changes: L10I I15V L63V I93L, study 83) | 1.6 | 1.2 | 1.2 | 1.3 | 1.5 | 1.1 |
| HIV-1 isolate 958 (protease changes: L10I L24I M46I L63P G73T L90M, study 138) | 24.5 | 16.2 | 9.3 | 10.8 | 56 | 7.5 |
| HIV-1 isolate 977 (protease changes: V32I M46I L63P A71V V77I V82A, study 138) | 3.5 | 0.4 | 7.6 | 2.6 | 4.1 | 1.4 |
| HIV-1 isolate 1009 (protease changes: I15V R41K K43R L63P I93L, study 15) | 1 | 0.9 | 0.7 | 1.3 | 0.9 | 0.8 |
| HIV-1 isolate 1054 (protease changes: I15V N37D I93L, study 15) | 0.9 | 0.8 | 0.5 | 0.9 | 0.5 | 0.7 |
| HIV-1 isolate 1058 (protease changes: L10I M46I I54V L63R A71V G73S V77I V82A L90M, study 15) | 28 | 25 | 40 | 26 | 36 | 26 |
| HIV-1 isolate 1061 (protease changes: I72V, study 15) | 0.5 | 0.6 | 0.5 | 0.4 | 0.5 | 0.5 |
| HIV-1 isolate 1071 (protease changes: L10F I15V D30N L33F E35D M36L N37E K43T D60E I62V L63P I84V N88D L90M I93L, study 64) | 27 | 400 | 78 | 128 | ≥ 600 | 30 |
| HIV-1 isolate 1103 (protease changes: I13V K20R D30N E35D M36I F53L R57K I62V L63A I66V A71I N88D L90M, study 15) | 2.2 | 40 | 9.2 | 8.4 | 88 | 1.8 |
| HIV-1 isolate 1154 (protease changes: L10I K20R L33F E34T E35D M36I N37D K43T M46I G48V I50V I54S I62V L63P A71V I72V V77I V82A I85V I93L, study 83) | 400 | 800 | 400 | 75 | 91 | 400 |
| HIV-1 isolate 1167 (protease changes: L10F I13V I54V I62V L63P A71V V82A, study 21) | 9.6 | 2.1 | 19 | 2.3 | 12 | 30 |
| HIV-1 isolate 1181 (protease changes: I15V Q18H K20I E35D M36I P39S I62V L63P A71V I72L G73S L90M, study 65) | 17 | 20 | 15 | 11 | 26 | 4.4 |
| HIV-1 isolate 1182 (protease changes: I13V E35D L63P A71V V77I I93L, study 15) | 1.2 | 0.8 | 0.9 | 1.2 | 1.5 | 0.7 |
| HIV-1 isolate 1188 (protease changes: L10I K20I M36I I54V L63P A71V V82T L90M, study 138) | 31.4 | 21.4 | 73.5 | 27.4 | 43.6 | 13.2 |
| HIV-1 isolate 1193 (protease changes: L10I I13V K20R L33F E34N E35D N37D K43T G48M I54S Q61E I62V L63P I64V T74S V77I V82T, study 15) | 140 | 500 | 190 | 120 | 110 | 99 |
